Results of unrelated studies side by side (data: NIAID ChemDB).

Shared fields: growth or infection tests; species: Coxsackie virus; read by: cytopathic effect; read-out: EC50

Conditions beyond the fields shown may differ between rows. ECn: concentration that inhibits the pathogen or its effect by n%.

| compound | cells | strain | value |
|---|---|---|---|
| C[N+]1(C)CCN(c2cccc(N3CC[N+](C)(C)CC3)c2[N+](=O)[O-])CC1 | HeLa | B3 | >70 µg/mL |
| Nc1ncnc2c1ncn2[C@@H]1C=C[C@@H](O)[C@H]1O | HeLa | TYPE B4 | >400 µg/mL |
| O=c1[nH]c(=O)n([C@H]2C[C@H](O)[C@@H](CO)O2)cc1/C=C/Br | HeLa | TYPE B4 | >400 µg/mL |
| O=[N+]([O-])c1cc(C(F)(F)F)ccc1N1CC[N+]2(CC1)CC[N+]1(CCN(c3ccc(C(F)(F)F)cc3[N+](=O)[O-])CC1)CC2 | HeLa | B3 | >70 µg/mL |
| Nc1nc(Cl)c2nnn(C[C@H]3CC[C@@H](CO)C3)c2n1 | VERO | TYPE B4 | >200 µg/mL |
| C[C@H]1C[C@@H](n2cnc3c(N)ncnc32)[C@H](O)[C@@H]1O | HeLa | TYPE B4 | >200 µg/mL |
| O=[N+]([O-])c1c(Cl)ncnc1NN1CC[N+]2(CC1)CC[N+]1(CCN(Nc3ncnc(Cl)c3[N+](=O)[O-])CC1)CC2 | HeLa | B3 | >70 µg/mL |
| NC(=O)c1c[se]c([C@@H]2O[C@H](CO)[C@@H](O)[C@H]2O)n1 | HeLa | TYPE B1/HA201468 | 10 µg/mL |
| OC(CCl)CN1CC[N+]2(CC1)CC[N+]1(CCN(CC(O)CCl)CC1)CC2 | HeLa | B3 | >70 µg/mL |
| Nc1nc2c(nnn2C[C@H]2CC[C@@H](CO)C2)c(=O)[nH]1 | HeLa | TYPE B4 | >200 µg/mL |
| Nc1nccc2c1ncn2[C@@H]1C[C@H](CO)[C@@H](O)[C@H]1O | HeLa | TYPE B4 | >400 µg/mL |
| Nc1nc(Cl)c2ncn(C[C@H]3CC[C@@H](CO)C3)c2n1 | VERO | TYPE B4 | >40 µg/mL |
| Nc1nccc2c1ncn2[C@@H]1C=C[C@@H](O)[C@H]1O | HeLa | TYPE B4 | >400 µg/mL |
| Nc1[nH]n2c(=O)cc(CN3CC[N+]4(CC3)CC[N+]3(CCN(Cc5cc(=O)n6[nH]c(N)c([N+](=O)[O-])c6n5)CC3)CC4)nc2c1[N+](=O)[O-] | HeLa | B3 | >70 µg/mL |
| Nc1nc(N)c2ncn(C[C@H]3CC[C@@H](CO)C3)c2n1 | HeLa | TYPE B4 | >200 µg/mL |

Repeating the first 2 entries:

compound	cells	strain	value
C[N+]1(C)CCN(c2cccc(N3CC[N+](C)(C)CC3)c2[N+](=O)[O-])CC1	HeLa	B3	>70 µg/mL
Nc1ncnc2c1ncn2[C@@H]1C=C[C@@H](O)[C@H]1O	HeLa	TYPE B4	>400 µg/mL